{"source": "PubChem BioAssay AID624099 (ICCB-Longwood, 2012)", "screen": "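Human genes that papillomavirus E2 requires to repress the HPV18 LCR promoter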 (primary screen)", "cells": "human C33A cervical carcinoma cells (HPV-negative) stably expressing BPV1 E2 and an HPV18 LCR luciferase reporter", "reagents": "siRNA pool against human genes, 40 nM", "timing": "72 h", "measurement": "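HPV18 LCR reporter light per well, converted to plate-wise z-scores that exclude control wells, and averaged over triplicate plates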", "scale": "mean z-score and z-score: higher = stronger reporter signal, weaker E2 silencing", "call rule": "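Mean z ≥ 2 together with z ≥ 2 in two or more of the three replicates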", "note": "Here is one part, drawn at random, of about 21,000 reagents tested. 497 of all reagents (2.4%) count as active. 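Higher z means weaker E2 silencing; only reporter increases were scored, and knock-downs that hurt cell survival may mask genuine repressor factors.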 Reagent sequences are not shown."}
{"Gene": "ADAP1 (ArfGAP with dual PH domains 1)", "mean z-score": 0.73, "z-score, replicate A": 0.49, "z-score, replicate B": 0.95, "z-score, replicate C": 0.76, "activity call": "inactive"}
{"Gene": "AEBP2 (AE binding protein 2)", "mean z-score": -0.72, "z-score, replicate A": -0.88, "z-score, replicate B": -0.84, "z-score, replicate C": -0.45, "activity call": "inactive"}
{"Gene": "SCN3A (sodium voltage-gated channel alpha subunit 3)", "mean z-score": 0.94, "z-score, replicate A": 1.1, "z-score, replicate B": 1.09, "z-score, replicate C": 0.64, "activity call": "inactive"}
{"Gene": "ISCA1P1 (iron-sulfur cluster assembly 1 pseudogene 1)", "mean z-score": -0.81, "z-score, replicate A": -0.7, "z-score, replicate B": -1.01, "z-score, replicate C": -0.74, "activity call": "inactive"}
{"Gene": "ST13P6 (ST13, Hsp70 interacting protein pseudogene 6)", "mean z-score": -0.45, "z-score, replicate A": -0.24, "z-score, replicate B": -0.73, "z-score, replicate C": -0.38, "activity call": "inactive"}
{"Gene": "ING4 (inhibitor of growth family member 4)", "mean z-score": -0.38, "z-score, replicate A": 0.03, "z-score, replicate B": -0.93, "z-score, replicate C": -0.23, "activity call": "inactive"}
{"Gene": "RETNLB (resistin like beta)", "mean z-score": 0.41, "z-score, replicate A": 0.49, "z-score, replicate B": 0.33, "z-score, replicate C": 0.41, "activity call": "inactive"}
{"Gene": "COXFA4L2 (cytochrome c oxidase hypoxia associated subunit FA4L2)", "mean z-score": -0.56, "z-score, replicate A": -0.7, "z-score, replicate B": -0.51, "z-score, replicate C": -0.45, "activity call": "inactive"}
{"Gene": "SNX10 (sorting nexin 10)", "mean z-score": -0.87, "z-score, replicate A": -0.9, "z-score, replicate B": -0.72, "z-score, replicate C": -1, "activity call": "inactive"}
{"Gene": "KCNIP4 (potassium voltage-gated channel interacting protein 4)", "mean z-score": 0.19, "z-score, replicate A": -0.03, "z-score, replicate B": 0.45, "z-score, replicate C": 0.16, "activity call": "inactive"}
{"Gene": "ARHGEF26 (Rho guanine nucleotide exchange factor 26)", "mean z-score": -0.82, "z-score, replicate A": -0.73, "z-score, replicate B": -0.95, "z-score, replicate C": -0.76, "activity call": "inactive"}
{"Gene": "POLDIP3 (DNA polymerase delta interacting protein 3)", "mean z-score": 0.13, "z-score, replicate A": -0.02, "z-score, replicate B": 0.38, "z-score, replicate C": 0.03, "activity call": "inactive"}
{"Gene": "MAPKAPK2 (MAPK activated protein kinase 2)", "mean z-score": -0.83, "z-score, replicate A": -1.06, "z-score, replicate B": -0.68, "z-score, replicate C": -0.76, "activity call": "inactive"}
{"Gene": "COLEC10 (collectin subfamily member 10)", "mean z-score": -1.49, "z-score, replicate A": -1.61, "z-score, replicate B": -1.44, "z-score, replicate C": -1.42, "activity call": "inactive"}
{"Gene": "NOG (noggin)", "mean z-score": -0.14, "z-score, replicate A": -0.25, "z-score, replicate B": -0.21, "z-score, replicate C": 0.06, "activity call": "inactive"}
{"Gene": "ARID1B (AT-rich interaction domain 1B)", "mean z-score": -1.03, "z-score, replicate A": -1.22, "z-score, replicate B": -0.91, "z-score, replicate C": -0.96, "activity call": "inactive"}
{"Gene": "LINC00908 (long independently transcribed non-coding RNA 908)", "mean z-score": -0.59, "z-score, replicate A": -0.41, "z-score, replicate B": -0.84, "z-score, replicate C": -0.53, "activity call": "inactive"}
{"Gene": "CBX7 (chromobox 7)", "mean z-score": -0.53, "z-score, replicate A": -0.53, "z-score, replicate B": -0.59, "z-score, replicate C": -0.48, "activity call": "inactive"}
{"Gene": "TMEM63C (transmembrane protein 63C)", "mean z-score": -1.63, "z-score, replicate A": -1.59, "z-score, replicate B": -1.35, "z-score, replicate C": -1.96, "activity call": "inactive"}
{"Gene": "ZNF746 (zinc finger protein 746)", "mean z-score": -0.86, "z-score, replicate A": -1.2, "z-score, replicate B": -0.76, "z-score, replicate C": -0.6, "activity call": "inactive"}
{"Gene": "FAM174C (family with sequence similarity 174 member C)", "mean z-score": -0.62, "z-score, replicate A": -0.49, "z-score, replicate B": -1.06, "z-score, replicate C": -0.32, "activity call": "inactive"}
{"Gene": "C10orf1 (retired record)", "mean z-score": 1.37, "z-score, replicate A": 1.92, "z-score, replicate B": 0.97, "z-score, replicate C": 1.22, "activity call": "inactive"}
{"Gene": "BEX1 (brain expressed X-linked 1)", "mean z-score": 0.88, "z-score, replicate A": 0.59, "z-score, replicate B": 1.07, "z-score, replicate C": 1, "activity call": "inactive"}
{"Gene": "TMPRSS15 (transmembrane serine protease 15)", "mean z-score": 0.89, "z-score, replicate A": 1.64, "z-score, replicate B": 0.69, "z-score, replicate C": 0.34, "activity call": "inactive"}
{"Gene": "ZNF574 (zinc finger protein 574)", "mean z-score": 0.17, "z-score, replicate A": 0.32, "z-score, replicate B": 0, "z-score, replicate C": 0.18, "activity call": "inactive"}
{"Gene": "GRTP1 (growth hormone regulated TBC protein 1)", "mean z-score": -0.29, "z-score, replicate A": -0.18, "z-score, replicate B": -0.09, "z-score, replicate C": -0.59, "activity call": "inactive"}
{"Gene": "DLEU1 (deleted in lymphocytic leukemia 1)", "mean z-score": -0.34, "z-score, replicate A": -0.47, "z-score, replicate B": -0.17, "z-score, replicate C": -0.39, "activity call": "inactive"}

2 entries from above, reduced to “z-score, replicate C”.
LINC00908 (long independently transcribed non-coding RNA 908) = -0.53
CBX7 (chromobox 7) = -0.48
